Laboratory results reported in article PMC6340895 (Protein & Cell, 2019).

Each compound was assayed on LASVpv. Details: read-out: IC50, LASVpv infection; Vero cells, luciferase activity, Fig. 1A and text.
C/C(=N\NC(=O)CCc1cccc(C)c1)c1ccc(NC(=O)c2ccco2)cc1 [compound 21, O=C(CCC1=CC(C)=CC=C1)N/N=C(C)/C2=CC=C(NC(C3=CC=CO3)=O)C=C2] was tested, and the IC50 was less than 0.2 nM.
Compound C/C(=N\NC(=O)CCc1ccc(Br)cc1)c1ccc(NC(=O)c2ccco2)cc1 [compound 29, O=C(CCC1=CC=C(Br)C=C1)N/N=C(C)/C2=CC=C(NC(C3=CC=CO3)=O)C=C2] has an IC50 of less than 0.2 nM.
C/C(=N\NC(=O)CCc1ccc(C(C)(C)C)cc1)c1ccc(NC(=O)c2ccco2)cc1 [compound 57, O=C(CCC1=CC=C(C(C)(C)C)C=C1)N/N=C(C)/C2=CC=C(NC(C3=CC=CO3)=O)C=C2] gave an IC50 of less than 0.2 nM.

Same assay, conditions: supplementary Table 1, effects of R substitutions
C/C(=N\NC(=O)CCc1ccccc1)c1ccc(NC(=O)c2ccco2)cc1 [compound 3, O=C(CCC1=CC=CC=C1)N/N=C(C)/C2=CC=C(NC(C3=CC=CO3)=O)C=C2] showed an IC50 of 868 nM.
C/C(=N\NC(=O)Cc1ccccc1)c1ccc(NC(=O)c2ccco2)cc1 [compound 7, O=C(CC1=CC=CC=C1)N/N=C(C)/C2=CC=C(NC(C3=CC=CO3)=O)C=C2] was tested, and the IC50 was 309 nM.
C/C(=N\NC(=O)Cc1ccc(Cl)cc1Cl)c1ccc(NC(=O)c2ccco2)cc1 [compound 8, O=C(CC1=C(Cl)C=C(Cl)C=C1)N/N=C(C)/C2=CC=C(NC(C3=CC=CO3)=O)C=C2] was tested, and the IC50 was 185 nM.
For C/C(=N\NC(=O)CCc1ccc(C)cc1)c1ccc(NC(=O)c2ccco2)cc1 [compound 9, O=C(CCC1=CC=C(C)C=C1)N/N=C(C)/C2=CC=C(NC(C3=CC=CO3)=O)C=C2], the IC50 was 0.37 nM.
C/C(=N\NC(=O)CCc1ccccc1F)c1ccc(NC(=O)c2ccco2)cc1 [compound 10, O=C(CCC1=C(F)C=CC=C1)N/N=C(C)/C2=CC=C(NC(C3=CC=CO3)=O)C=C2] showed an IC50 of 3 nM.
C/C(=N\NC(=O)CCc1ccccc1C)c1ccc(NC(=O)c2ccco2)cc1 [compound 20, O=C(CCC1=C(C)C=CC=C1)N/N=C(C)/C2=CC=C(NC(C3=CC=CO3)=O)C=C2] showed an IC50 of 0.92 nM.
C/C(=N\NC(=O)CCc1cccc(C)c1)c1ccc(NC(=O)c2ccco2)cc1 [compound 21, O=C(CCC1=CC(C)=CC=C1)N/N=C(C)/C2=CC=C(NC(C3=CC=CO3)=O)C=C2] gave an IC50 of 0.019 nM.
COc1ccc(CCC(=O)N/N=C(\C)c2ccc(NC(=O)c3ccco3)cc2)cc1 [compound 22, O=C(CCC1=CC=C(OC)C=C1)N/N=C(C)/C2=CC=C(NC(C3=CC=CO3)=O)C=C2] was tested, and the IC50 was 0.05 nM.
In the case of C/C(=N\NC(=O)CCCc1ccc(C)cc1)c1ccc(NC(=O)c2ccco2)cc1 [compound 23, O=C(CCCC1=CC=C(C)C=C1)N/N=C(C)/C2=CC=C(NC(C3=CC=CO3)=O)C=C2], the IC50 is reported as 0.3 nM.
Compound C/C(=N\NC(=O)CCc1ccc([N+](=O)[O-])cc1)c1ccc(NC(=O)c2ccco2)cc1 [compound 24, O=C(CCC1=CC=C([N+]([O-])=O)C=C1)N/N=C(C)/C2=CC=C(NC(C3=CC=CO3)=O)C=C2] has an IC50 of 100 nM.
C/C(=N\NC(=O)CCc1cccc([N+](=O)[O-])c1)c1ccc(NC(=O)c2ccco2)cc1 [compound 25, O=C(CCC1=CC([N+]([O-])=O)=CC=C1)N/N=C(C)/C2=CC=C(NC(C3=CC=CO3)=O)C=C2] gave an IC50 of 94 nM.
With C/C(=N\NC(=O)CCc1ccc(F)cc1)c1ccc(NC(=O)c2ccco2)cc1 [compound 26, O=C(CCC1=CC=C(F)C=C1)N/N=C(C)/C2=CC=C(NC(C3=CC=CO3)=O)C=C2] the IC50 was 1.9 nM.
C/C(=N\NC(=O)CCCCc1ccccc1)c1ccc(NC(=O)c2ccco2)cc1 [compound 27, O=C(CCCCC1=CC=CC=C1)N/N=C(C)/C2=CC=C(NC(C3=CC=CO3)=O)C=C2] showed an IC50 of 1.7 nM.
COc1ccc(CCC(=O)N/N=C(\C)c2ccc(NC(=O)c3ccco3)cc2)c(OC)c1 [compound 28, O=C(CCC1=C(OC)C=C(OC)C=C1)N/N=C(C)/C2=CC=C(NC(C3=CC=CO3)=O)C=C2] was tested, and the IC50 was 93 nM.
C/C(=N\NC(=O)CCc1ccc(Br)cc1)c1ccc(NC(=O)c2ccco2)cc1 [compound 29, O=C(CCC1=CC=C(Br)C=C1)N/N=C(C)/C2=CC=C(NC(C3=CC=CO3)=O)C=C2] showed an IC50 of 0.19 nM.
C/C(=N\NC(=O)CCc1ccccc1C(F)(F)F)c1ccc(NC(=O)c2ccco2)cc1 [compound 30, O=C(CCC1=C(C(F)(F)F)C=CC=C1)N/N=C(C)/C2=CC=C(NC(C3=CC=CO3)=O)C=C2] gave an IC50 of 2.7 nM.
With COc1ccc(CC(=O)N/N=C(\C)c2ccc(NC(=O)c3ccco3)cc2)cc1 [compound 54, O=C(CC1=CC=C(OC)C=C1)N/N=C(C)/C2=CC=C(NC(C3=CC=CO3)=O)C=C2] the IC50 was 200 nM.
C/C(=N\NC(=O)CCCc1ccccc1)c1ccc(NC(=O)c2ccco2)cc1 [compound 56, O=C(CCCC1=CC=CC=C1)N/N=C(C)/C2=CC=C(NC(C3=CC=CO3)=O)C=C2] was tested, and the IC50 was 264 nM.
C/C(=N\NC(=O)CCc1ccc(C(C)(C)C)cc1)c1ccc(NC(=O)c2ccco2)cc1 [compound 57, O=C(CCC1=CC=C(C(C)(C)C)C=C1)N/N=C(C)/C2=CC=C(NC(C3=CC=CO3)=O)C=C2] gave an IC50 of less than 0.001 nM.
